{"sequences": {"note": "Sequences of proteins named here, by UniProt entry; tags and fusion partners are left off. Residues count along the entry.", "UniProt O42275, 24-633 limits assumed": "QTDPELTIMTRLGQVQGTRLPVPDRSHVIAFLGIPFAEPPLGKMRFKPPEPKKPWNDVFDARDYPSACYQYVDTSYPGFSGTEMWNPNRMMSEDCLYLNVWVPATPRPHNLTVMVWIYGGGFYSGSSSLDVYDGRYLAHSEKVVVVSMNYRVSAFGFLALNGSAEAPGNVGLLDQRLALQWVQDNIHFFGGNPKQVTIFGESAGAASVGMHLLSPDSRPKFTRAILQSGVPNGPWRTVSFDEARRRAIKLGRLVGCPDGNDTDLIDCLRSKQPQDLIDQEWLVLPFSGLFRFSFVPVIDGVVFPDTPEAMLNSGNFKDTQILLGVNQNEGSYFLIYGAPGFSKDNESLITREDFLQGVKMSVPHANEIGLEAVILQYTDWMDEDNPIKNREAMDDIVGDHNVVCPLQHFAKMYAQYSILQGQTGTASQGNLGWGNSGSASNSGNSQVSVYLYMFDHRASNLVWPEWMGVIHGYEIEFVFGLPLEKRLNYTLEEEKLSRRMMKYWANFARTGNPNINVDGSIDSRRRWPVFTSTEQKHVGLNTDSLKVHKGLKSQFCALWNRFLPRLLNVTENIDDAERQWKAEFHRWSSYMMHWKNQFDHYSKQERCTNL"}, "source": "BindingDB's records for 6471073", "molecular_target": "Acetylcholinesterase (Electrophorus electricus, UniProt O42275)", "assay": "Concentration at 2 uM that inhibits 50%of acetylcholinesterase activity evaluated in vitro at a pH of 8 in the presence of 7.5x10E-4 acetylthiocholine", "conditions": "pH 8", "data": [{"smiles": "Cc1nsc(CN=O)n1", "values": [{"measurement": "IC50", "value": "> 1000", "unit": "µM"}]}]}
